From publication PMC7150935 (Toxins, 2020)

Amino acid sequences for entries named in this document (tags omitted). Residues count along the entry.
UniProt P04757, 26-499 limits assumed: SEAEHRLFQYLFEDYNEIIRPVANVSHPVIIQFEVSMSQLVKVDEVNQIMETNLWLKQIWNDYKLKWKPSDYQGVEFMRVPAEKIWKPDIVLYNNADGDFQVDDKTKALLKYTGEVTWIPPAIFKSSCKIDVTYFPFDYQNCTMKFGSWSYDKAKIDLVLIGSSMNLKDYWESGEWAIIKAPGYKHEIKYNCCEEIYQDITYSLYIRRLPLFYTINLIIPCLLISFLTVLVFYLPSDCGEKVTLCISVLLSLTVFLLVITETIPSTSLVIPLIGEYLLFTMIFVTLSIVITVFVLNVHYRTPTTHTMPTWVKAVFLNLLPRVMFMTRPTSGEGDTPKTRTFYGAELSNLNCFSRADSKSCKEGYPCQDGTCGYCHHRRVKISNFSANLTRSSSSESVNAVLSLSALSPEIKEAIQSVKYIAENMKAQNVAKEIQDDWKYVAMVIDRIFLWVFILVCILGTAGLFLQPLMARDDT
UniProt P12392, 21-495 limits assumed: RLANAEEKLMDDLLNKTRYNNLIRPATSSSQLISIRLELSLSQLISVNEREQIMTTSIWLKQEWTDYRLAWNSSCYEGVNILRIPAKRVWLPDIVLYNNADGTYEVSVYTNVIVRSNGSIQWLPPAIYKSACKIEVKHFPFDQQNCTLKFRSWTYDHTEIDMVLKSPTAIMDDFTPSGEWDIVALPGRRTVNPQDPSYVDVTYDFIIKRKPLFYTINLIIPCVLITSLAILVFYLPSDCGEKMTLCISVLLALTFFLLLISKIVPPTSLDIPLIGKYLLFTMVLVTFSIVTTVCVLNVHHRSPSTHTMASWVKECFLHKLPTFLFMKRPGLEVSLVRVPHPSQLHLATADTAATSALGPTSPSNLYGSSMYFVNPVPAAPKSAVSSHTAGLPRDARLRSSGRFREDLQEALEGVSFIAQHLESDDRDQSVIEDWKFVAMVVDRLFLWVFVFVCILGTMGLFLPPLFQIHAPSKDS

Assays:
[1] = test system: nAChRs at NMJs of zebrafish slow fibers; assay: Fluorescence imaging of Alexa488 α-BgTX binding, zebrafish slow fibers; conditions: 10 μM αM-MIIIJ, 10-min pre-treatment, 1 μg/mL Alexa488 α-BgTX
zebrafish αβε nAChR = assay: Block of ACh-gated currents (IACh) in voltage-clamped X. laevis oocytes, zαβε; conditions: n = 3
rat α3β4 nAChR = rat α3β4 nAChR (Rattus norvegicus, UniProt P04757+P12392); assay: Block of ACh-gated currents (IACh) in voltage-clamped X. laevis oocytes, rα3β4; conditions: 10 μM, highest concentration tested
zebrafish αβδγ nAChR = assay: Protection against slowly-reversible block by α-EI or α-BgTX, zαβδγ in oocytes; conditions: 10 μM αM-MIIIJ; α-BgTX 10 μg/mL
[2] = test system: nAChRs at X. laevis LP muscle NMJs; assay: Fluorescence imaging of TMR α-BgTX binding at X. laevis LP NMJs; conditions: 10 μM αM-MIIIJ, 10-min pretreatment; 1 μg/mL TMR α-BgTX, 30 min
zebrafish αβδε nAChR = assay: Protection against slowly-reversible block by α-EI or α-BgTX, zαβδε in oocytes; conditions: 10 μM αM-MIIIJ; α-BgTX 10 μg/mL
[3] = test system: nAChRs at NMJs of zebrafish fast fibers; assay: Fluorescence imaging of Alexa488 α-BgTX binding, zebrafish fast fibers; conditions: 10 μM αM-MIIIJ, 10-min pre-treatment, 1 μg/mL Alexa488 α-BgTX

## CC[C@H](C)[C@@H]1NC(=O)[C@H](CC(C)C)NC(=O)[C@H](CCCNC(=N)N)NC(=O)[C@H](CC(=O)O)NC(=O)[C@H](CCCNC(=N)N)NC(=O)[C@H](Cc2ccccc2)NC(=O)[C@H](Cc2ccc(O)cc2)NC(=O)[C@H](CC(C)C)NC(=O)[C@@H]2CCCN2C(=O)[C@@H]2CSSC[C@@H](C(=O)O)NC(=O)[C@@H]3CSSC[C@H](NC(=O)[C@H](CCCCN)NC(=O)[C@@H]4CCC(=O)N4)C(=O)N[C@@H](CSSC[C@H](NC1=O)C(=O)N1CCC[C@H]1C(=O)N3)C(=O)N[C@@H](CO)C(=O)NCC(=O)NCC(=O)N[C@@H](CO)C(=O)N2 [αM-MIIIJ]
[1]
  inhibition of Alexa488 α-BgTX binding: inhibited α-BgTX binding to both types of muscle fibers
Zebrafish αβε nAChR; 5-min toxin exposure, static bath, ACh 100 μM 1-s pulse, 1/min, −70 mV, 95% C.I. in parentheses, data steeper than Langmuir isotherm fit
  IC50: 34 nM
Zebrafish αβε nAChR; washout, single-exponential fit, 95% C.I. of 0.7–0.9
  koff: 0.0133 s⁻¹
Rat α3β4 nAChR
  block of IACh: failed to block IACh
Zebrafish αβδγ nAChR
  protection against α-BgTX block: only partial protection
[2]
  inhibition of TMR α-BgTX binding: very little binding of TMR α-BgTX
Zebrafish αβδε nAChR
  protection against α-BgTX block: largely protected
[3]
  inhibition of Alexa488 α-BgTX binding: inhibited α-BgTX binding to both types of muscle fibers
